Measured values from several laboratories, pooled; numbers as filed in NIAID ChemDB.

Shared fields: toxicity to cultured cells; cells: PBMC; read-out: CC50

Conditions beyond the fields shown may differ between rows. CCn: concentration that lowers growth or viability of the cells by n%. An empty or dashed field is not shown.

structure | read by | result
Cc1cn([C@H]2C[C@H](N=[N+]=[N-])[C@@H](CO)O2)c(=O)[nH]c1=O | MTS | >1 µM
Cc1cc(C)cc(Cn2c(=S)ccn(Cc3c(F)cccc3F)c2=O)c1 |  | >336 µM
CC(=O)O[C@@]12C[C@@H](C)[C@@]3(O)[C@@H](C=C(CO)C[C@]4(O)C(=O)C(C)=C[C@@H]34)[C@@H]1C2(C)C | trypan blue | >0.25 µM
Nc1nc(=O)n([C@@H]2C=C(F)[C@H](CO)S2)cc1F | MTT | >100 µM
Cn1c(N)nc2c(ncn2[C@H]2CO[C@@H](CO)O2)c1=O | MTT | >100 µM
CCOP(=O)(OCC)C(F)(F)C[C@@]1(F)CO[C@H](n2cc(C)c(=O)[nH]c2=O)C1 |  | >100 µM
Cc1cn([C@H]2C[C@@H](CO)[C@@H](CO)O2)c(=O)[nH]c1=O | trypan blue | >100 µM
O=C(OC[C@H]1O[C@@H](n2cc(C(=O)Nc3ccc(Cl)cc3)c(=O)c3cc(Cl)ccc32)[C@H](OC(=O)c2ccccc2)[C@@H]1OC(=O)c1ccccc1)c1ccccc1 | XTT | >1000 µM
CC[C@@]1(O)C(=O)NCc2c1cc1n(c2=O)Cc2cc3ccccc3nc2-1 | XTT | >40 µM
C[C@]12CC[C@@H]3c4ccc(O)cc4CC[C@H]3[C@@H]1CC[C@@H]2O | MTS | >0.003 µM
Cc1cc(C)cc(Cn2c(=O)ccn(Cc3ccccc3)c2=O)c1 |  | 194 µM
O[C@]12C=C(Cc3cccc4cnccc34)[C@@H]3CCN(CCCC/C=C\CC1)C[C@@]31C[C@@H]3CCCCCCN3C12 | trypan blue | 4.2 µM
CC(C)(C)C(=O)SCCOP(=O)(OCCSC(=O)C(C)(C)C)C(F)(F)C[C@@]1(F)CO[C@@H](n2cnc3c(N)ncnc32)C1 |  | 80 µM
Cc1ccc(C)n1-c1ccc(C(=O)O)c(O)c1 | trypan blue | 305.6 µg/mL
O=C(/C=C(\O)c1cc(Cc2c(F)cccc2F)cn(Cc2ccccc2F)c1=O)C(=O)NN1CCCC1=O | MTS / tetrazolium | 96.2 µM
Cc1cn([C@H]2C[C@H](N=[N+]=[N-])[C@@H](CO)O2)c(=O)[nH]c1=O | XTT | >4 µM
Cc1cn([C@H]2C[C@H](N=[N+]=[N-])[C@@H](CO)O2)c(=O)[nH]c1=O | MTT | >100 µM
Cc1cn([C@H]2C[C@H](N=[N+]=[N-])[C@@H](CO)O2)c(=O)[nH]c1=O | MTT | >100 µM
O=C(O)C(=O)/C=C(\O)c1cn(Cc2ccccc2)c(=O)n(Cc2ccccc2)c1=O | MTS | >200 µM
CCOP(=O)(C[C@@H]1C[C@H](n2cc(C)c(=O)[nH]c2=O)O[C@@H]1CO)OCC | trypan blue | >100 µM
Nc1ncnc2c1ncn2[C@@H]1CC[C@H](CO)O1 |  | >100 µM
COc1cc(O)cc(C(C)(C)CCCC(C)C)c1 | XTT | 46.4 µM
CN(C)c1nc(N)nc2c1ncn2[C@H]1CO[C@@H](CO)O1 | MTT | >100 µM
NC(=O)CCNC(=O)c1ccccc1SC(=O)c1cccnc1 | XTT | 56.3 µM
O[C@]12C=C(Cc3cnccn3)[C@@H]3CCN(CCCC/C=C\CC1)C[C@@]31C[C@@H]3CCCCCCN3C12 | trypan blue | 14.1 µM
CC(C)[C@H](N)C(=O)OC[C@@H]1OC[C@H](n2cnc3c(N)nc(N)nc32)O1 | MTT | >100 µM
Nc1nc(N)c2ncn([C@H]3CO[C@@H](CO)O3)c2n1 |  | >1000 µM
[O-][n+]1ccc(CC2=C[C@@]3(O)CC/C=C\CCCCN4CC[C@@H]2[C@]2(C[C@@H]5CCCCCCN5C23)C4)cc1 | trypan blue | 5.1 µM
CC(C)(C)C(=O)c1sc(C(=O)NCc2ccccc2)c(O)c1O | resazurin | 12.5 µM
CO[C@H]1CCCC[C@@H](c2ccccc2)OC(=O)C(C)[C@@]2(O)OC([C@@H](C)[C@H](O)[C@H]2OC)[C@@H](C)/C=C/[C@H]1OC | ATP | >50 µM
O=c1ccn(Cc2ccccc2)c(=O)[nH]1 |  | 351 µM
Cc1cn([C@H]2C[C@H](N=[N+]=[N-])[C@@H](CO)O2)c(=O)[nH]c1=O | MTS | >1 µM
Cc1ccc(Cn2c(=O)ccn(CC#N)c2=O)cc1C |  | 434 µM
CC[C@H](C)[C@H](NC(=O)C(=O)OC[C@H]1O[C@@H](n2cc(C)c(=O)[nH]c2=O)C[C@@H]1N=[N+]=[N-])C(=O)O | sulforhodamine | 400 µM
CCOC(=O)c1cccc(Cn2ccc3ccc(-c4ccc5ccn(Cc6cccc(C(=O)O)c6)c5c4)cc32)c1 | MTS | >50 µM
Nc1ccn([C@H]2CC[C@@H](CO)O2)c(=O)n1 | XTT | >10 µM
Cc1cc(Cn2c(=O)ccn(Cc3c(F)cccc3F)c2=O)cc(C)n1 |  | 322 µM
Nc1ccn([C@@H]2C=C(F)[C@H](CO)S2)c(=O)n1 | MTT | >100 µM
Nc1nc2c(ncn2[C@H]2C[C@@](F)(CC(F)(F)P(=O)(O)O)CO2)c(=O)[nH]1 |  | 95 µM
Nc1nncc2c([C@H]3CC[C@@H](/C=C/P(=O)(O)O)C3(F)F)c[nH]c12 | MTT / absorbance | 45 µM
O=c1ccn([C@@H]2C=C(F)[C@H](CO)S2)c(=O)[nH]1 | MTT | >100 µM
C=C[C@H](OC(C)=O)c1ccc(OC(C)=O)cc1 | MTS | >4 µM
CCCCCCCCCCCCSCC(COP(=O)([O-])OCC[N+](C)(C)C)OCCCCCCCCO | trypan blue | >100 µM
Cc1cn([C@H]2C[C@H](N=[N+]=[N-])[C@@H](COC(=O)C(=O)NC(Cc3ccccc3)C(=O)O)O2)c(=O)[nH]c1=O | trypan blue | 100 µM
CC1(C)CC[C@]2(C(=O)O)CC[C@]3(C)C(=CC[C@@H]4[C@@]5(C)CC[C@H](O)C(C)(C)[C@@H]5CC[C@]43C)[C@@H]2C1 | crystal violet | >160 µM
O=c1ccn([C@H]2C[C@@](F)(CC(F)(F)P(=O)(O)O)CO2)c(=O)[nH]1 |  | 90 µM
Cc1c(O)cccc1C(=O)N[C@@H](CSc1ccccc1)[C@H](O)CN1C[C@H]2CCCC[C@H]2C[C@H]1C(=O)NC(C)(C)C | tetrazolium | 3.5 µM
C=C(C)[C@]12C[C@@H](COC(=O)c3ccccc3)[C@@]34O[C@]5(O[C@@H]1[C@@H]3[C@@H]1O[C@]1(CO)[C@@H](O)[C@@]1(O)[C@H]4[C@H]([C@H](C)[C@@H]1OC(=O)c1ccccc1)[C@H](C)CCCCCC[C@H]5O)O2 | luminescence | >2.5 µM
Clc1ccccc1-c1nc2ccccn2c1NC1CCCCC1 | ATP / luminescence | >10 µM
CC(C)OC(=O)[C@H](C)N[P@](=O)(CO[C@H](C)Cn1cnc2c(N)ncnc21)Oc1ccccc1 | visual reading | 1.32 µM
Cc1cc(Cl)nc(C)c1C(=O)NCC[C@@H](C)N1CCC(N(Cc2ccsc2)C(=O)NCCCCC(=O)O)CC1 | MTS | >34.6 µM
Cc1cn([C@H]2C[C@H](N=[N+]=[N-])[C@@H](COC(=O)C(=O)N[C@H](C(=O)O)C(C)C)O2)c(=O)[nH]c1=O | sulforhodamine | 250 µM
Cc1ccc(Cn2c(=O)ccn(CC#N)c2=O)c(C)c1 |  | >464 µM

Again, the opening 4 rows:

structure,read by,result
Cc1cn([C@H]2C[C@H](N=[N+]=[N-])[C@@H](CO)O2)c(=O)[nH]c1=O,MTS,>1 µM
Cc1cc(C)cc(Cn2c(=S)ccn(Cc3c(F)cccc3F)c2=O)c1,,>336 µM
CC(=O)O[C@@]12C[C@@H](C)[C@@]3(O)[C@@H](C=C(CO)C[C@]4(O)C(=O)C(C)=C[C@@H]34)[C@@H]1C2(C)C,trypan blue,>0.25 µM
Nc1nc(=O)n([C@@H]2C=C(F)[C@H](CO)S2)cc1F,MTT,>100 µM